Laboratory results reported in PMC7733455, “A novel multistage antiplasmodial inhibitor targeting Plasmodium falciparum histone deacetylase 1” (Cell Discovery, 2020).
Some results come without the dose or concentration used.

Test system: 3D7 schizont-stage transcriptome
Test: RNA-seq of schizont-stage 3D7 after treatment
Format: cell-based, Plasmodium falciparum
Conditions: 3D7 at the schizont stage

Cl.Cn1cc(CN2CCC3(CCN(c4ncc(C(=O)NO)cn4)C3)C2)c2cc(C#N)ccc21 (centres unmarked) [JX21108]
genes downregulated after treatment: 505 genes
genes upregulated after treatment: 837 genes
